Compound potency records, mixed from different reports. Data source: NIAID ChemDB in PubChem.

Common to all: enzyme or target tests; agent: HIV-1; target: gp120; measure: IC50

Rows are shuffled and stem from different studies.

SMILES	read by	strain or isolate	value
CC[C@H](C)/C=C(C)/C=C/C1=CC2=C(Cl)C3=C(C(C)=O)C(=O)O[C@@]3(C)C(=O)C2=CO1	ELISA		>240 µM
COc1ccc(C[C@H]2COC(=O)[C@]2(O)Cc2ccc(O)c(O)c2)cc1OC	ELISA		~50 µM
O=S(=O)(O)c1cc(S(=O)(=O)O)c2c(Nc3ccnc4cc(Cl)ccc34)ccc(S(=O)(=O)O)c2c1	binding		>1000 µg/mL
O=C(CO)N[C@@H]([C@@H](O)[C@H](O)[C@H](O)CO)[C@@H](O)C(=O)C(=O)O		MN	<80 µM
O=C1C[C@@H](c2ccc(O)cc2)Oc2cc(O[C@@H]3C[C@@H](O)[C@H](O)[C@@H](CO)O3)cc(O)c21	ELISA		<80 µg/mL
O=C(O[C@@H]1Cc2c(O)cc(O)cc2O[C@@H]1c1cc(O)c(O)c(O)c1)c1cc(O)c(O)c(O)c1	fluorescence		<100 µM
CC[C@H](C)CC(C)CCC1=CC2=C(Cl)C(=O)[C@]3(C)OC(=O)[C@@H](C(C)=O)[C@@H]3C2=CO1	ELISA		>260 µM
COC(=O)C(=O)N1CC[C@@H](/C=C/C(Cc2ccccc2)C(=O)OCc2ccccc2)C1	ELISA		>1000 µg/mL
CC[C@H](C)/C=C(C)/C=C/C1=CC2=C(Cl)C(=O)[C@](C)(OC(C)=O)C(=O)C2=CO1			>100 µg/mL
CN1C(=O)C(c2cc(Cl)c(O)c(Cl)c2)NC(=O)[C@@H]2NC(=O)C(c3cc(Cl)c(O)c(Cl)c3)NC(=O)[C@H](NC(=O)C(=O)c3cc(Cl)c(O)c(Cl)c3)Cc3c[nH]c4c(cccc34)-c3cc2cc(c3O)Oc2ccc(cc2)CC1C(=O)NC(C(=O)O)c1ccc(O)cc1	ELISA		2 µM
O=C1c2c(O)cc(O)c(O)c2O[C@H](c2ccc(O)cc2)[C@H]1O	ELISA		<50 µg/mL
CC(C)C[C@H](NC(=O)[C@H](Cc1ccccc1)N1NC(=O)[C@H]([C@@H](N)CO)CCC(=O)N[C@@H](CO)C1=O)C(=O)N[C@H](C(=O)NCc1ccccc1)[C@@H](C)O	ELISA		>100 µM
CC[C@H](C)/C=C(C)/C=C/C1=CC2=C(Cl)C(=O)[C@](C)(O)[C@H](OC(C)=O)[C@H]2CO1	ELISA		96 µM
CCCCCCCCCCCCCCCCCC(=O)N(CCCCCCCCCCC(=O)O)CC(O)C(O)C(OC1OC(CO)C(O)C(O)C1O)C(O)CO	radiometric		1.2 µM
O=C(O)/C=C/c1ccc[c]([Sb](=[O])([OH])[OH])c1	ELISA		1.29 µM
CC[C@H](C)C=C(C)/C=C/C1=CC2=C(Cl)C(=O)[C@](C)(O)[C@H](CC(C)=O)C2=CO1	ELISA		3.9 µM
CC[C@H](C)/C=C/C1=CC2=C(Cl)C(=O)[C@@]3(C)OC(=O)C(C(=O)[C@@H](C)[C@@H](C)O)=C3C2=CO1	ELISA		>230 µM
O=C(/C=C/c1ccc(O)c(O)c1)O[C@@H]1CC(O)(C(=O)O)C[C@@H](OC(=O)/C=C/c2ccc(O)c(O)c2)C1O	binding	LAI	>97 µM
CC[C@H](C)/C=C(C)/C=C/C1=CC2=C(Br)C(=O)[C@]3(C)OC(=O)[C@@H](C(C)=O)[C@@H]3C2CO1	ELISA		2.5 µM
O=C(C=Cc1ccc(O)c(O)c1)O[C@@H]1C[C@](O)(C(=O)O)C[C@@H](O)[C@H]1O	ELISA		<400 µg/mL
CC[C@H](C)/C=C(C)/C=C/C1=CC2=CC(=O)[C@](C)(O)[C@H](O)[C@H]2CO1	ELISA		>300 µM
CC[C@H](C)C=C(C)/C=C/C1=CC2=C(Cl)C(=O)[C@](C)(O)[C@H](CC(C)=O)C2=CO1			1.51 µg/mL
CC[C@H](C)/C=C/C1=CC2=C(Cl)C(=O)[C@@]3(C)OC(O)(C(C)C(C)O)C(C(C)=O)C3C2=CO1	ELISA		140 µM
O=C1c2c(O)cc(O[C@@H]3C[C@@H](O)[C@H](O)[C@@H](CO)O3)cc2O[C@H](c2ccc(O)c(O)c2)[C@H]1O	ELISA		<50 µg/mL
CC[C@H](C)/C=C(C)/C=C/C1=CC2=C(Cl)C(=O)[C@@]3(C)OC(=O)C(C(C)=O)=C3C2=CO1	ELISA		>240 µM
Cc1ccc(-c2ccc3c(c2)C=C(C(=O)Nc2ccc(C[N+](C)(C)C4CCOCC4)cc2)CCC3)cc1	antigen	JR-FL	>10 µM
O=c1c(O[C@@H]2O[C@H](CO)[C@@H](O)[C@H](O)[C@H]2O)c(-c2ccc(O)cc2)oc2cc(O)cc(O)c12	binding		~70 µg/mL
CC[C@H](C)/C=C(C)/C=C/C1=CC2=C(Cl)C(=O)[C@](C)(O)[C@H](O)[C@H]2CO1	ELISA		48 µM

For reference, 4 entries again:

SMILES | read by | strain or isolate | value
CCCCCCCCCCCCCCCCCC(=O)N(CCCCCCCCCCC(=O)O)CC(O)C(O)C(OC1OC(CO)C(O)C(O)C1O)C(O)CO | radiometric |  | 1.2 µM
CN1C(=O)C(c2cc(Cl)c(O)c(Cl)c2)NC(=O)[C@@H]2NC(=O)C(c3cc(Cl)c(O)c(Cl)c3)NC(=O)[C@H](NC(=O)C(=O)c3cc(Cl)c(O)c(Cl)c3)Cc3c[nH]c4c(cccc34)-c3cc2cc(c3O)Oc2ccc(cc2)CC1C(=O)NC(C(=O)O)c1ccc(O)cc1 | ELISA |  | 2 µM
O=C(C=Cc1ccc(O)c(O)c1)O[C@@H]1C[C@](O)(C(=O)O)C[C@@H](O)[C@H]1O | ELISA |  | <400 µg/mL
O=S(=O)(O)c1cc(S(=O)(=O)O)c2c(Nc3ccnc4cc(Cl)ccc34)ccc(S(=O)(=O)O)c2c1 | binding |  | >1000 µg/mL

ICn: concentration for n% inhibition. Blank or dashed fields: not listed here.